How the values were obtained:
Assay in all cases: ITC; 37°C; gp120 about 4 µM in the cell, sCD4 about 40 µM in the syringe; reaction A1 (CD4 to free gp120); apparent enthalpy
2CC (HIV-1 (HXBc2)) = biological target: 2CC (HIV-1 (HXBc2))
3CC (HIV-1 (HXBc2)) = biological target: 3CC (HIV-1 (HXBc2))
4CC (HIV-1 (HXBc2)) = biological target: 4CC (HIV-1 (HXBc2))
coreV3S (HIV-1 (HXBc2)) = biological target: coreV3S (HIV-1 (HXBc2))

sCD4 (from UniProt P01730 26-396) (receptor)
dH (2CC (HIV-1 (HXBc2))): 27 kcal/mol
dH (3CC (HIV-1 (HXBc2))): 27 kcal/mol
dH (4CC (HIV-1 (HXBc2))): 27 kcal/mol
dH (coreV3S (HIV-1 (HXBc2))): 56 kcal/mol

From PMC2680979
